Several values for one entry are separate records, joined by “and”; a condition that tells them apart may be missing. Equal entries are not always repeated. This is a selection; strong and weak results do not stand in their true shares.
Tests used:
Assay in all cases: cell viability relative to vehicle control; higher = less cytotoxic
Conditions in all cases: 10 µM
K562 = system: K562
Method in brief: (§1)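 Four leukaemia lines, as CRISPR-edited mutant clones and isogenic wild-type clones, were tested against Selleck bioactive, kinase and epigenetic probe libraries after removal of identity-inconsistent compounds. Cells were exposed to a single 10 µM dose for 48 h, and CellTiter-Glo luminescence was then read. Viability was calculated relative to the on-plate vehicle control.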

MARIMO = system: MARIMO
Method in brief: as §1

MOLM14 = system: MOLM14
Method in brief: as §1

OCI-AML2 = system: OCI-AML2
Method in brief: as §1

## COc1ccc(C(=O)CBr)cc1 [PTP Inhibitor II]
K562; SRSF2 genotype: SRSF2 P95H/wt
  cell viability: 101% and 105%
K562; SRSF2 genotype: SRSF2 wt/wt
  cell viability: 103%
MARIMO; SRSF2 genotype: SRSF2 P95H/wt
  cell viability: 97.5%
MARIMO; SRSF2 genotype: SRSF2 wt/wt
  cell viability: 107%
MOLM14; SRSF2 genotype: SRSF2 P95H/wt
  cell viability: 94.9%
MOLM14; SRSF2 genotype: SRSF2 wt/wt
  cell viability: 105%
OCI-AML2; SRSF2 genotype: P95H/wt
  cell viability: 101%
OCI-AML2; SRSF2 genotype: wt/wt
  cell viability: 99.6%
